Measured values published in patent US6713043B2 (priority 1996, dated 2004).

System: ts envM E. coli mutant ts100 with pBSK:2.1 L. pneumophila insert
Test: Zone of inhibition, ts envM E. coli complemented with L. pneumophila DNA insert

## Cc1ccc(C)c(OCCCC(C)(C)C(=O)O)c1 [GFZ, Gemfibrozil]
Permissive temperature 30° C., with or without the insert
  sensitivity to GFZ (zone of inhibition): not sensitive
Restrictive conditions 42° C., low osmolarity LB plates, 5 mg GFZ disks
  sensitivity to GFZ (zone of inhibition): sensitive
